What was measured:
[1] = tested on: HIV-1 LTR promoter; details: Pharmakon 1600 library, 10 uM, 24 hours, FIG. 10
[2] = tested on: latent HIV-1 in JLat 8.6 cells; experiment: HIV-1 latency reactivation in JLat 8.6 cells; assay type: cell-based; details: with one or more of PMA, prostratin, TNFα, and bryostatin; FIG. 11

Substance: sodium monofluorophosphate
- identified as variability enhancer (VE) in noise screen [1]: variability enhancers
- synergy in reactivation of HIV-1 latency [2]: synergized

From patent US10184933B2, “Compositions, systems and methods for gene expression noise drug screening and uses thereof” (priority 2013, dated 2019)
